{"source": "patent US20030203969A1", "about": "“Pharmaceutically active aromatic guanylhydrazones” (priority 2000, published 2003)", "key": {"[1]": {"test_system": "HBV", "test": "HBV replication in chronically infected HepG2 2.2.15 cells (TaqMan PCR of HBV DNA)", "format": "cell-based, Hepatitis B virus", "parameters": "unit not given beside the values", "experimental": "Human HepG2-2.2.15 cells (ATCC Cat. No. CRL-11997), chronically infected with HBV, are plated in 96-well microtiter plates in DMEM medium supplemented with fetal bovine serum. After incubation at 37° C. in a humidified, 5% CO2 environment for 16-24 hours, the monolayer of HepG2-2.2.15 cells is washed and the medium is replaced with complete medium containing various concentrations of test compound. Every three days during the experiments, the culture medium is replaced with fresh medium containing the appropriately diluted test compound. Six days following the initial administration of the test compound, the cell culture supernatant is collected and clarified by centrifugation. The cell viability is evaluated by a dye uptake procedure (Promega's Cell Titer Aqueous One Solution). Virion-associated HBV DNA present in the tissue culture supernatant is amplified employing PCR technology using primer pairs derived from the HBV strain ayw. Subsequently, the PCR-amplified HBV DNA is detected in real-time by monitoring increases in fluorescence signals that result from exonucleolytic degradation of a quenched fluorescent probe molecule following hybridization of the probe to the amplified HBV DNA (TaqMan; Perkin-Elmer)."}, "[2]": {"test_system": "Respiratory Syncytial Virus (Long)", "format": "cell-based", "experimental": "A cytoprotection assay procedure using MTS is employed to evaluate compounds for antiviral activity against Respiratory Syncytial Virus (Long) in Vero (African green monkey, ATCC Cat. No. CCL-81) cells. The cells are pre-grown overnight at 37° C. (2×10^4/well in 96 well tissue culture plates) with 10% fetal Bovine serum containing Minimum Essential Medium. The positive control for the assay is Interferon-Gamma/Ribavirin. The infection medium contains reduced serum levels (2% FBS).\nUsing half log dilutions with high test starting at 100 μg/ml the drug dilutions are made and added to triplicate cultures in 0.1 ml volume and pre-titrated virus suspension is also added in 0.1 ml volume. […] CPE inhibition is determined by dye uptake procedure (Celltiter-MTS). […] The amount of soluble formazan produced by cellular reduction of the MTS is measured by the absorbance at 490 nm. The quantity of formazan product as measured by the amount of 490 nm absorbance is directly proportional to the number of living cells in the culture thus allowing the rapid quantitative analysis of the inhibition of virus-induced cell killing by the test substances. […]\nThe inhibitory drug concentration which reduces the viral replication by 95% (IC95) and the minimum drug concentration which inhibits cell growth by 95% (TC95) are calculated by using a regression analysis program for semilog curve fitting. […]"}}, "note": "Where two headings read alike, the source gives them in different places."}
{"smiles": "CC(=NNC(=N)N)c1cc(NC(=O)CCCCCCCCC(=O)Nc2cc(C(C)=NNC(=N)N)cc(C(C)=NNC(=N)N)c2)cc(C(C)=NNC(=N)N)c1", "note": "[Compound 4, N,N′-bis (3,5-diacetylphenyl) decane diamide tetrakis (amidinohydrazone)]", "values": [{"measurement": "TI50 Intracellular Viral DNA", "setting": "[1]; TC50 divided by IC50 (Intracellular Viral DNA)", "result": ">4.03"}, {"measurement": "TI50 Virion-DNA", "setting": "[1]; TC50 divided by IC50 (Virion-DNA)", "result": ">6.27"}, {"measurement": "TI", "setting": "[2]; TC50 divided by IC50", "result": 5.95}, {"measurement": "TI", "setting": "[2]; TC95 divided by IC95", "result": 10.20}]}
